PubChem BioAssay AID624099 – ICCB-Longwood, 2012
Screen: 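Human genes that papillomavirus E2 requires to repress the HPV18 LCR promoter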 (primary screen). Cells: human C33A cervical carcinoma cells (HPV-negative) stably expressing BPV1 E2 and an HPV18 LCR luciferase reporter. Knock-down reagent: siRNA pool against human genes, 40 nM. Timing: 72 h. Read-out: 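Per-well luciferase luminescence, z-scored on each plate against the plate mean and SD with control wells left out, then averaged across three replicate plates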. Direction: mean z-score and z-score: higher = stronger reporter signal, weaker E2 silencing. Call rule: 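Mean z ≥ 2 together with z ≥ 2 in two or more of the three replicates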.
The deposit covers about 21,000 reagents; below is a random part of them. 497 of all reagents (2.4%) count as active. 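Higher z means weaker E2 silencing; only reporter increases were scored, and knock-downs that hurt cell survival may mask genuine repressor factors.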 A number with no mark means an inactive call.

The first 3 records as a preview:
| Gene | mean z-score | z-score, replicate A | z-score, replicate B | z-score, replicate C |
| --- | --- | --- | --- | --- |
| CTTNBP2NL | -1.47 | -1.39 | -1.59 | -1.43 |
| FASTKD4 | -1.88 | -1.59 | -2.07 | -1.98 |
| CUTALP | 0 | -0.08 | 0.06 | 0.01 |

The listing, from the first entry:
| Gene | mean z-score | z-score, replicate A | z-score, replicate B | z-score, replicate C |
| --- | --- | --- | --- | --- |
| CTTNBP2NL | -1.47 | -1.39 | -1.59 | -1.43 |
| FASTKD4 | -1.88 | -1.59 | -2.07 | -1.98 |
| CUTALP | 0 | -0.08 | 0.06 | 0.01 |
| ERN1 | 0.79 | 0.91 | 0.67 | 0.77 |
| PCYT1B | 0.12 | 0.26 | -0.09 | 0.21 |
| ZNF274 | -0.91 | -1.13 | -0.54 | -1.06 |
| RPL6 | -2.05 | -2.04 | -2.02 | -2.08 |
| SERPINA3 | 0.54 | 0.63 | 0.63 | 0.35 |
| MDN1 | -1.28 | -1.3 | -1.47 | -1.06 |
| GPR55 | -0.11 | -0.49 | 0.11 | 0.05 |
| CLUH | -1.38 | -1.48 | -1.36 | -1.3 |
| GJB3 | -0.65 | -0.66 | -0.66 | -0.64 |
| TNFSF8 | 0.68 | 0.92 | 0.75 | 0.37 |
| KCNN1 | 0.85 | 0.82 | 0.85 | 0.87 |
| SPATA3 | 0.06 | 0.24 | -0.07 | 0.02 |
| TMPRSS12 | 0.33 | 0.04 | 0.44 | 0.5 |
| TEX10 | -0.07 | 0.35 | 0.33 | -0.88 |
| SHPK | -0.69 | -0.44 | -0.56 | -1.07 |
| NPIPB3 | 1.03 | 0.87 | 0.76 | 1.45 |
| KRTAP3-3 | 1.18 | 1.45 | 1.01 | 1.07 |
| IL2RG | -0.57 | -0.73 | -0.5 | -0.47 |
| FERD3L | 0.38 | 0.75 | 0 | 0.23 |
| UNC5B | -0.32 | -0.22 | -0.47 | -0.26 |
| PXDN | -0.32 | -0.38 | -0.31 | -0.28 |
| CCDC88B | -1.24 | -1.28 | -1.02 | -1.44 |
| SLBP | 0.33 | -0.05 | 0.39 | 0.65 |
| GEMIN4 | 0.03 | -0.07 | -0.15 | 0.32 |
| SIRT4 | -0.65 | -1.28 | -0.5 | -0.15 |
| PPFIA3 | -0.39 | -0.21 | -0.48 | -0.47 |
| TLR8 | 0.42 | 0.28 | 0.5 | 0.48 |
| B4GALT2 | 0.14 | 0.09 | -0.18 | 0.5 |
| NDUFS3 | 0.41 | -0.01 | 0.56 | 0.67 |
| TAF15 | 0.17 | 0.24 | 0.25 | 0.02 |
| KIF25-AS1 | 0.72 | 0.78 | 0.56 | 0.82 |
| NDUFA12 | -0.95 | -0.51 | -1.27 | -1.08 |
| RNF44 | 1.09 | 0.72 | 1.49 | 1.06 |
| LOC388573 (retired record) | -0.17 | -0.11 | -0.15 | -0.24 |
| PXDC1 | -0.23 | 0.09 | -0.5 | -0.27 |
| TMEM87B | 0.48 | 0.43 | 0.52 | 0.48 |
| CAMK2D | 2.47 (active) | 2.46 | 2.15 | 2.8 |
| XRN2 | -0.06 | -0.21 | -0.09 | 0.13 |
| PPP2R5E | -1.08 | -0.88 | -1.32 | -1.04 |
| CASP10 | 0.29 | 0.14 | 0.58 | 0.15 |
| CD69 | -0.04 | 0.06 | -0.08 | -0.1 |
| TAF8 | 1.05 | 0.83 | 1.34 | 0.99 |
| SEC11A | -0.85 | -0.86 | -1.11 | -0.57 |
| HNRNPA1P60 | 0.18 | 0.43 | 0.05 | 0.07 |
| SOSTDC1 | 1.31 | 1.46 | 1.4 | 1.06 |
| ZBTB47 | -0.58 | -0.62 | -0.66 | -0.46 |
| FBLN2 | 0.13 | 0.21 | 0.21 | -0.03 |
| PRKRIP1 | -0.04 | -0.18 | -0.1 | 0.16 |
| IL2RA | 10.4 (active) | 10 | 10.6 | 10.6 |
| EPHA6 | 2.72 (active) | 2.96 | 2.99 | 2.22 |
| LOC392586 (retired record) | -0.67 | -1.34 | -0.5 | -0.17 |
| LOC339760 (retired record) | -0.25 | -0.43 | -0.09 | -0.22 |
| RAB4A | 0.86 | 0.47 | 1.03 | 1.1 |
| CYP2C8 | 0.43 | 0.23 | 0.38 | 0.68 |
